Measured data: PubChem BioAssay AID1259414 (Drosophila RNAi Screening Center, 2018)
Purpose: 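Genome-wide screen for host control of endosymbiont load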 (primary screen). Cell system: Drosophila JW18 cells infected with Wolbachia. Reagents: long dsRNA against Drosophila genes, 0.25 µg dsRNA per well of a 384-well plate. Timing: 5 days. Conditions: cells persistently infected with Wolbachia before knock-down; no added drug. Read-out: 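Imaged fluorescence in situ signal for Wolbachia 23S rRNA per DAPI-counted host cell, given as a robust z-score within each plate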. Direction: Wolbachia per cell robust z: higher = more Wolbachia per host cell than the plate typical. Rule for the call: 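Hit when robust z is 1.5 or more, or -1.5 or less, in at least two of three replicates; excludes dsRNAs with several or no targets, genes not expressed in JW18 and well A1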.
In all, the deposit lists about 24,000 reagents; below is a random part of those with a known target gene and a result. In the full data, about 1,210 (5%) were called active. 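Inactive calls also include excluded dsRNAs with several or no targets, genes unexpressed in JW18, and well A1, regardless of score.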 Reagents against one gene are numbered here. Names joined by + are all predicted targets of the reagent.

| target gene | reagent | Wolbachia per cell robust z, rep 1 | Wolbachia per cell robust z, rep 2 | Wolbachia per cell robust z, rep 3 | call |
| --- | --- | --- | --- | --- | --- |
| stops (slow termination of phototransduction) | 1 | -0.677 | -0.437 | 0.084 | inactive |
| stops (slow termination of phototransduction) | 2 | 0.58 | -0.44 | 0.161 | inactive |
| stops (slow termination of phototransduction) | 3 | 0.185 | 0.194 | -5.27 | inactive |
| Reg-5 (Rhythmically expressed gene 5) | 1 | -0.89 | -7.58 | -5.18 | active |
| CG15263 | 1 | -1.32 | -0.335 | 0.0455 | inactive |
| CG15263 | 2 | 0.297 | 0.428 | 0.108 | inactive |
| CG33169 | 1 | -0.437 | -0.498 | 0.0272 | inactive |
| CG33169 | 2 | -5.33 | 0.249 | 0.121 | inactive |
| CG2962 | 1 | 0.113 | 0.429 | 0.381 | inactive |
| CG2962 | 2 | -1.11 | 1.71 | -0.228 | inactive |
| lncRNA:CR43132 (long non-coding RNA:CR43132) | 1 | -3.71 | -0.422 | -0.739 | inactive |
| Ir41a (Ionotropic receptor 41a) | 1 | -0.706 | 0.0471 | -2.22 | inactive |
| Ir41a (Ionotropic receptor 41a) | 2 | 0.958 | -0.448 | 0.763 | inactive |
| asRNA:CR42871 + CG6661 | 1 | 0.386 | 0.123 | -0.0886 | inactive |
| CG30429 | 1 | 1.06 | 0.0167 | 0.273 | inactive |
| Crys (Crystallin) | 1 | -2.22 | -0.0574 | -1.22 | inactive |
| Crys (Crystallin) | 2 | 1.51 | 0.961 | 0.901 | inactive |
| CG9915 | 1 | -0.651 | 0.762 | 0.747 | inactive |
| CG9915 | 2 | -0.386 | -0.714 | 0.473 | inactive |
| CG9915 | 3 | 0.266 | -0.588 | 0.031 | inactive |
| Hsc70-3 (Heat shock protein 70 cognate 3) | 1 | 0.659 | 0.678 | 1.1 | inactive |
| Hsc70-3 (Heat shock protein 70 cognate 3) | 2 | 0.945 | 0.71 | 1.37 | inactive |
| CG30334 | 1 | 0.868 | 0.281 | -0.129 | inactive |
| CG30334 | 2 | -0.649 | -1.12 | -1.25 | inactive |
| Abp1 (Actin binding protein 1) | 1 | -1.05 | 1.4 | -0.309 | inactive |
| CG9338 | 1 | -0.0325 | -0.339 | -0.0101 | inactive |
| CG9338 | 2 | -0.581 | -0.672 | 0.109 | inactive |
| FucTB (alpha1,3-fucosyltransferase B) | 1 | -1.02 | -0.977 | -1.61 | inactive |
| Srp19 (Signal recognition particle 19) | 1 | -0.691 | -1.23 | -0.527 | inactive |
| Srp19 (Signal recognition particle 19) | 2 | -0.571 | -0.0442 | 0.671 | inactive |
| CG15446 | 1 | 0.609 | -0.991 | 0.503 | inactive |
| alka (alkaliphile) | 1 | 0.879 | 0.32 | -1.83 | inactive |
| Mtp (Microsomal triacylglycerol transfer protein) | 1 | -3.07 | -1.03 | 1.08 | inactive |
| CG10413 | 1 | -0.779 | -0.262 | 0.179 | inactive |
| CG14329 | 1 | 0.965 | 0.973 | 1.38 | inactive |
| CG3735 | 1 | 0.139 | -0.247 | 0.262 | inactive |
| CG32563 | 1 | -2.49 | 0.209 | -1.74 | inactive |
| CG32563 | 2 | -0.178 | 0.587 | -0.262 | inactive |
| CG1824 | 1 | 0.237 | -0.00815 | -0.0774 | inactive |
| TTLL4A (Tubulin tyrosine ligase-like 4A) | 1 | -0.033 | 0.354 | -0.863 | inactive |
| TTLL4A (Tubulin tyrosine ligase-like 4A) | 2 | -0.558 | -1.18 | -0.828 | inactive |
| Rab9 | 1 | 0.624 | -3.04 | -0.556 | inactive |
| CG5162 | 1 | -0.964 | -0.558 | 0.367 | inactive |
| Snapin + HemK2 | 1 | -1.4 | -0.505 | -0.63 | inactive |
| Grx1t (Glutaredoxin 1, testis-specific) | 1 | -1.63 | -1.21 | -0.321 | inactive |
| Grx1t (Glutaredoxin 1, testis-specific) | 2 | 0.585 | -0.053 | 0.83 | inactive |
| CG42814 | 1 | -0.6 | -0.155 | 0.0249 | inactive |
| Wdr92 (WD repeat domain 92) | 1 | 0.905 | -0.0253 | -1.7 | inactive |
| Akt (Akt kinase) | 1 | -0.229 | 1.76 | -0.242 | inactive |
| Akt (Akt kinase) | 2 | 0.528 | -2.03 | 0.675 | inactive |
| Tom40 (Translocase of outer membrane 40) | 1 | -1.38 | -0.274 | 0.473 | inactive |
| vlc (vulcan) | 1 | 0.504 | 1.12 | 0.63 | inactive |
| sit (stuck in traffic) | 1 | -1.01 | -1.84 | -0.635 | inactive |
| sit (stuck in traffic) | 2 | -0.723 | -2.84 | -0.0255 | inactive |
| CG1545 | 1 | -1.31 | -1.4 | -0.089 | inactive |
| CG8036 | 1 | -0.411 | -2.77 | -1.98 | active |
| PK1-R (Pyrokinin 1 receptor) | 1 | -0.357 | -1.84 | -0.587 | inactive |
| CG1632 | 1 | 1.2 | -0.193 | 0.0886 | inactive |
| CG1632 | 2 | 0.811 | 1.1 | -2.04 | inactive |
| Mip (Myoinhibiting peptide precursor) | 1 | 0.637 | -0.138 | 0.0326 | inactive |
| AP-2alpha (Adaptor Protein complex 2, alpha subunit) | 1 | 3.45 | 0.413 | -5.1 | inactive |
| AP-2alpha (Adaptor Protein complex 2, alpha subunit) | 2 | 1.27 | 1.15 | 1.47 | inactive |
| cyst (cysts) | 1 | -0.443 | 0.717 | 0.538 | inactive |
| CG9395 | 1 | 0.711 | 0.235 | 0.671 | inactive |
| CG9395 | 2 | 0.319 | 0.133 | 0.809 | inactive |
| ics (icarus) | 1 | -0.532 | -0.136 | -1.72 | inactive |
| ics (icarus) | 2 | 0.12 | 0.352 | -0.232 | inactive |
| erm (earmuff) | 1 | -0.0715 | -0.16 | -0.702 | inactive |
| beta4GalNAcTB (beta1,4-N-acetylgalactosaminyltransferase B) | 1 | 0.339 | -2.56 | -4.35 | inactive |
| eve (even skipped) | 1 | -1.45 | 0.715 | -0.807 | inactive |
| eve (even skipped) | 2 | -1.77 | 0.121 | 0.0313 | inactive |
| Ltn1 (Listerin E3 ubiquitin protein ligase 1) | 1 | -0.68 | -1.92 | -0.225 | inactive |
| Ltn1 (Listerin E3 ubiquitin protein ligase 1) | 2 | -0.151 | 0.475 | -1.27 | inactive |
| CG32073 | 1 | 0.12 | -0.681 | 0.81 | inactive |
| CG32073 | 2 | -1.17 | -0.403 | -0.629 | inactive |
| Rtel1 (Regulator of telomere elongation helicase 1) | 1 | 1.07 | -0.00429 | -0.7 | inactive |
| Rtel1 (Regulator of telomere elongation helicase 1) | 2 | 0.698 | -0.548 | 0.308 | inactive |
| Alp12 (Alkaline phosphatase 12) | 1 | 0.436 | 1.08 | 0.352 | inactive |
| RpL31 (Ribosomal protein L31) | 1 | 1.42 | 1.34 | 1.26 | inactive |
| RpL31 (Ribosomal protein L31) | 2 | 0.781 | 1.88 | 2.54 | active |
| CG33773 | 1 | 1.15 | -0.145 | 1.49 | inactive |
| Sox21a | 1 | -0.103 | -0.338 | 0.526 | inactive |
| Sox21a | 2 | 1.01 | 1.67 | 0.898 | inactive |
| Gr64b + Gr64c | 1 | 0.268 | -0.463 | 0.754 | inactive |
| CG9331 | 1 | 1.68 | -1.23 | 1.24 | inactive |
| CG9331 | 2 | -0.229 | -0.313 | -0.403 | inactive |
| Taf2 (TBP-associated factor 2) | 1 | 0.623 | -0.676 | -1.39 | inactive |
| Taf2 (TBP-associated factor 2) | 2 | 0.119 | 0.0241 | -1.58 | inactive |

Called active, of those listed so far:
| target gene | reagent | Wolbachia per cell robust z, rep 1 | Wolbachia per cell robust z, rep 2 | Wolbachia per cell robust z, rep 3 | call |
| --- | --- | --- | --- | --- | --- |
| Reg-5 (Rhythmically expressed gene 5) | 1 | -0.89 | -7.58 | -5.18 | active |
| CG8036 | 1 | -0.411 | -2.77 | -1.98 | active |
| RpL31 (Ribosomal protein L31) | 2 | 0.781 | 1.88 | 2.54 | active |
